Like-named read-outs stand apart in the source and are kept apart here.
Tests used:
NS3/4A protease gt 1b = NS3/4A protease gt 1b (Hepatitis C virus genotype 1b, UniProt P26663); assay: HCV NS3 protease time-resolved fluorescence (TRF) assay, NS3/4A inhibitory activity (Ki), gt 1b; assay type: biochemical; details: read-out: Enzyme Activity gt 1b Ki; genotype 1b NS3/4A
Experimental: (§1) The HCV NS3 protease inhibitory activity of the present compounds may be tested using assays known in the art. One such assay is HCV NS3 protease time-resolved fluorescence (TRF) assay as described below and in International Patent Application Publication WO2006/102087. Other examples of such assays are described in e.g., International Patent Application Publication WO2005/046712. HCV NS3 protease inhibitors, such as those described herein have a Ki less than 50 μM, such as less than 10 μM, and less than 100 nM. Ki is determined by an NS3 protease assay. The assay is performed in a final volume of 100 μl in assay buffer containing 50 mM HEPES, pH 7.5, 150 mM NaCl, 15% glycerol, 0.15% TRITON X-100, 10 mM DTT, and 0.1% PEG 8000. […] Product fluorescence is detected using either a VICTOR V2 or FUSION fluorophotometer (Perkin Elmer Life and Analytical Sciences) with excitation at 340 nm and emission at 615 nm with a 400 μs delay. […]
(§2) One such assay is HCV NS3 protease time-resolved fluorescence (TRF) assay as described below and in Mao et al., Anal Biochem. 373:1-8, 2008 and International Patent Application Publication WO 2006/102087. […] Product fluorescence is detected using either a VICTOR V2 or FUSION fluorophotometer (Perkin Elmer Life and Analytical Sciences) with excitation at 340 nm and emission at 615 nm with a 400 μs delay. […]

Sequences of proteins named here, by UniProt entry; tags and fusion partners are left off. A change or cut given only in a name is not applied to a line headed by its entry. Residues count along the entry.
UniProt P26663, 1658-1711 partner limits assumed: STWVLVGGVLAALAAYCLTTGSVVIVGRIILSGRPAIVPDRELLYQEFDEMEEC
UniProt P26663, 1027-1657 limits assumed: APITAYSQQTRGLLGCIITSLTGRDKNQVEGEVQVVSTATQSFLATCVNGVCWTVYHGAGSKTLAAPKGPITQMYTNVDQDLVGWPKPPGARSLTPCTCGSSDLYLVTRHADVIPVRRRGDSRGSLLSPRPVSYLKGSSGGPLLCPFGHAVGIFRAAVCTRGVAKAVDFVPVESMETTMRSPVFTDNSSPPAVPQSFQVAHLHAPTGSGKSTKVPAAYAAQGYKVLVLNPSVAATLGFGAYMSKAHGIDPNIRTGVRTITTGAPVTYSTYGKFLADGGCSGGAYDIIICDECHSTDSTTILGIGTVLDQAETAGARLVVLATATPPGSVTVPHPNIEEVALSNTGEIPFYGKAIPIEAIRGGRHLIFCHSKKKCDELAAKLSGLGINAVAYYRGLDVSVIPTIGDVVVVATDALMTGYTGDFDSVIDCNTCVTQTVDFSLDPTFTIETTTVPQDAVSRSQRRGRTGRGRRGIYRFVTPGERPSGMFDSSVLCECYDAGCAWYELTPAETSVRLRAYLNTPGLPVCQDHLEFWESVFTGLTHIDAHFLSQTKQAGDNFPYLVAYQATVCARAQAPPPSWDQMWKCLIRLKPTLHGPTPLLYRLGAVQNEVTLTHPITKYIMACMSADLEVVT
UniProt P26663, 1027-1657 A1182V limits assumed: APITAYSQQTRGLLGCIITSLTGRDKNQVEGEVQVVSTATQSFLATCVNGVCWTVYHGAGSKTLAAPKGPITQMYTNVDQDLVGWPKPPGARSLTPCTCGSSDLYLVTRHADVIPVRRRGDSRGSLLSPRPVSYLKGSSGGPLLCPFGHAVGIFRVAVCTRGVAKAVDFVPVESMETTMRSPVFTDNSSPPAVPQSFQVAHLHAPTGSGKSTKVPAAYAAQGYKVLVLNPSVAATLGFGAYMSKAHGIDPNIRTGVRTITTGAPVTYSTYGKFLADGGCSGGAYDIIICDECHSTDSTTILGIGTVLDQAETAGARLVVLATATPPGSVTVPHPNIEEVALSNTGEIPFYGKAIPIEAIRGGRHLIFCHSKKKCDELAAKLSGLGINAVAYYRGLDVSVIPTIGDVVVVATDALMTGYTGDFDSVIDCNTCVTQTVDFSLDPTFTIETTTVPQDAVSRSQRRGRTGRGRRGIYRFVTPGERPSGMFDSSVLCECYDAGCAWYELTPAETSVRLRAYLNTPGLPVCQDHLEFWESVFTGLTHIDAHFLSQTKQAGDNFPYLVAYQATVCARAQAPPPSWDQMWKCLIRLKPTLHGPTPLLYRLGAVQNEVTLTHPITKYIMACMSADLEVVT
UniProt Q81258, 1033-1663 limits assumed: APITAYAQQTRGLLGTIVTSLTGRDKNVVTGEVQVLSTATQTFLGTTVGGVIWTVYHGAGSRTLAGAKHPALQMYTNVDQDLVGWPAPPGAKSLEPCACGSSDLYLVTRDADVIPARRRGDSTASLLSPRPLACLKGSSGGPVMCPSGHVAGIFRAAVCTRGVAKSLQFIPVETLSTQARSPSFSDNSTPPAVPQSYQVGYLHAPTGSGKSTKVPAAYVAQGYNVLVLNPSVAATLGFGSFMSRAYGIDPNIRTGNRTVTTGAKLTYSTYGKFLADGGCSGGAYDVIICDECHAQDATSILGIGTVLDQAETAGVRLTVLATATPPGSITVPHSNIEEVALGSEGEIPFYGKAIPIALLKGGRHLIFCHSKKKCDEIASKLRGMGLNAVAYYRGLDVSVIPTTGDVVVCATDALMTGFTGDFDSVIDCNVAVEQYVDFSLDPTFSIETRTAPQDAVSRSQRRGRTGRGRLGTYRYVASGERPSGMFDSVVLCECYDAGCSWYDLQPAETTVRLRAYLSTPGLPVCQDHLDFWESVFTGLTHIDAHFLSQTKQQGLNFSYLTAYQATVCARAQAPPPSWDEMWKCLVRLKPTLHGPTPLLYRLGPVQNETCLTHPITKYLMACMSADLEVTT
UniProt Q81258, 1664-1717 partner limits assumed: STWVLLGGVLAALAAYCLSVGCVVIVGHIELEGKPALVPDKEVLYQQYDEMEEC

[1] = molecular target: NS3/4A protease gt 1b A156V (Hepatitis C virus genotype 1b, UniProt P26663, A1182V); assay: HCV NS3 protease time-resolved fluorescence (TRF) assay, NS3/4A inhibitory activity (Ki), gt 1b A156V mutant; assay type: biochemical, hepatitis C virus (HCV); details: read-out: Enzyme Activity gt lb A156V Ki; genotype 1b A156V mutant NS3/4A
Experimental: as §1, §2

NS3/4A protease gt 3a = NS3/4A protease gt 3a (Hepatitis C virus genotype 3a, UniProt Q81258); assay: HCV NS3 protease time-resolved fluorescence (TRF) assay, NS3/4A inhibitory activity (Ki), gt 3a; assay type: biochemical; details: read-out: Enzyme Activity gt 3a Ki; genotype 3a NS3/4A
Experimental: as §1, §2

gt 1b Replicon = assay: HCV replicon assay, compound inhibitory potency (Replicon EC50)
Experimental: Measurement of inhibition by compounds was performed using the HCV replicon system. Several different replicons encoding different HCV genotypes or mutations were used. In addition, potency measurements were made using different formats of the replicon assay, including different ways of measurements and different plating formats. See Jan M. Vrolijk et al., A replicons-based bioassay for the measurement of interferons in patients with chronic hepatitis C, 110 J. VIROLOGICAL METHODS 201 (2003); Steven S. Carroll et al., Inhibition of Hepatitis C Virus RNA Replication by 2′-Modified Nucleoside Analogs, 278(14) J. BIOLOGICAL CHEMISTRY 11979 (2003). However, the underlying principles are common to all of these determinations, and are outlined below. […]
To initiate an assay, replicon cells were plated in the presence of a dilution series of test compound in the absence of G418. […] For direct quantitation, RNA levels were measured by ^32P-probe hybridization and protection, or in a TAQMAN based assay and normalized to cellular cyclophilin A RNA levels. In some cases, luciferase activity was measured using a conventional luciferase assay. In all cases EC50 determinations were calculated as a percent of a DMSO control by fitting the data to a four parameter fit function.

SMILES	Ki (NS3/4A protease gt 1b) [nM]	Ki [1] [nM]	Ki (NS3/4A protease gt 3a) [nM]	EC50 (gt 1b Replicon; read-out: gt 1b Replicon EC50 10% FBS, 10% Fetal Bovine Serum) [nM]	EC50 (gt 1b Replicon; read-out: gt 1b Replicon EC50 50% NHS, 50% Normal Human Serum) [nM]
C=C[C@@H]1C[C@]1(NC(=O)[C@@H]1C[C@@H]2CN1C(=O)[C@H](C1CCCC1)NC(=O)O[C@@H]1CCC[C@H]1CCCCCc1nc3ccccc3nc1O2)C(=O)NS(=O)(=O)C1CC1	0.02	8.2	2.7	3.3	20
C=C[C@@H]1C[C@]1(NC(=O)[C@@H]1C[C@@H]2CN1C(=O)[C@H](C1CCCC1)NC(=O)O[C@@]1(C)C[C@@H]1CC/C=C/Cc1c(nc3ccccc3c1O)O2)C(=O)NS(=O)(=O)C1CC1	0.5	30	21.8	–	–

From US20130178413A1, “HCV NS3 PROTEASE INHIBITORS” (priority 2010, published 2013)
